According to publication PMC4207412, “Secondary Structural Preferences of Some Antibacterial Cyclooctapeptides in the Presence of Calcium(II)” (International Journal of Medicinal Chemistry, 2012):
Square brackets hold non-standard residues; d marks the D form. Peptide text beside a SMILES is read from it.

Assays:
[1] = Isothermal titration calorimetry of Ca2+ binding in 10% acetonitrile in water; settings: ITC, 30°C, no DPC, mean of three experiments ± standard error mean; for Change in enthalpy ΔH: one-site model; for Change in Gibbs free energy ΔG: ΔG = −RT ln K b; for Change in entropy ΔS: ΔS = (ΔH − ΔG)/T
Description: (§1) Microcalorimetric titrations of peptides with metal ions were conducted by isothermal titration microcalorimetry (ITC) using a Microcal VP-ITC Instrument (Northampton, MA, USA). Experiments were carried out at 30°C in 10% acetonitrile in water. The peptide concentration was 0.15 or 0.30 mM (1.34 mL sample cell), and the metal ion [Ca(ClO4)2] concentration was varied from 9 to 15 mM in the syringe. Automated titrations were conducted until saturation, up to a Ca^2+/peptide mole ratio of about 12 : 1. Heats of dilution and mixing for each experiment were measured by titrating calcium(II) solution into 10% acetonitrile solution. The effective heat of each peptide and calcium(II) interaction was corrected for dilution and mixing effects by subtracting the enthalpy change derived from the titration of calcium(II) solution into the 10% acetonitrile solution without the peptide. In a similar way, ITC experiments were carried out at 30°C in 10% aqueous acetonitrile containing 10 mM DPC. These heats of bimolecular interactions were obtained by integrating the peak following each injection of calcium(II). The binding isotherms were derived from the raw ITC data following correction for dilution and mixing effects. These isotherms were fitted using the one-site model by a nonlinear least square analysis with Microcal Origin 7.0 software (Microcal Software, Inc., Northampton, MA, USA) to determine the molar enthalpy change for binding, ΔH, and the corresponding binding constant, K b. From these values, the thermodynamic characterization of the interaction at 30°C was determined from the fundamental equations of thermodynamics, ΔG = −RT ln K b and ΔS = (ΔH − ΔG)/T.

[2] = Isothermal titration calorimetry of Ca2+ binding in micellar DPC (10 mM); settings: ITC, 30°C, 10% aqueous acetonitrile containing 10 mM micellar DPC, mean of three experiments ± standard error mean; for Change in enthalpy ΔH: one-site model; for Change in Gibbs free energy ΔG: ΔG = −RT ln K b; for Change in entropy ΔS: ΔS = (ΔH − ΔG)/T
Description: as §1
In order to mimic the hydrophobic environment of the bacterial membrane that antimicrobial peptides commonly target, the interactions of these cyclopeptides with calcium(II) were also conducted in the presence of micellar dodecylphosphocholine (DPC). […] However, their association is compensated by an increase in entropy (ΔS values range from ca. 42.7 to 66.5 JK^−1 mol^−1). This entropy/enthalpy compensation could be attributed to a greater degree of dehydration of the hydration spheres around the cyclopeptide molecules and calcium ions following complex formation in the hydrophobic micellar DPC environment. However, there is no significant trend in the enthalpy or entropy changes following calcium(II) binding in the presence of micellar DPC.

| Structure (SMILES) | Change in enthalpy ΔH [1] | Change in Gibbs free energy ΔG [1] | Change in entropy ΔS [1] | Change in enthalpy ΔH [2] | Change in Gibbs free energy ΔG [2] | Change in entropy ΔS [2] |
| --- | --- | --- | --- | --- | --- | --- |
| CC(C)C[C@@H]1NC(=O)[C@@H](CCCCN)NC(=O)[C@H](CCCCN)NC(=O)[C@@H](CCCCN)NC(=O)[C@H](CCCCN)NC(=O)[C@@H](CC(C)C)NC(=O)[C@H](CC(C)C)NC(=O)[C@@H](CC(C)C)NC1=O [COP 1] (cyclo(K[dK]K[dK]L[dL]L[dL])) | -0.12 ± 0.024 kcal/mol | -4.9 ± 0.096 kcal/mol | 65.7 ± 1.7 J K^−1 mol^−1 | – | – | – |
| CC(C)C[C@@H]1NC(=O)[C@@H](CC(C)C)NC(=O)[C@H](CC(C)C)NC(=O)[C@@H](CCCCN)NC(=O)[C@H](CCCCN)NC(=O)[C@@H](CCCCN)NC(=O)[C@H](CCCCN)NC(=O)[C@@H](Cc2c[nH]c3ccccc23)NC1=O [COP 2] (cyclo(K[dK]K[dK]L[dL]L[dW])) | -0.14 ± 0.0096 kcal/mol | -5 ± 0.19 kcal/mol | 67.8 ± 3.8 J K^−1 mol^−1 | – | – | – |
| CC(C)C[C@@H]1NC(=O)[C@@H](CC(C)C)NC(=O)[C@H](CCCCN)NC(=O)[C@@H](CCCCN)NC(=O)[C@H](CCCCN)NC(=O)[C@@H](CCCCN)NC(=O)[C@H](CS)NC(=O)[C@@H](CC(C)C)NC1=O [COP 3] (cyclo(C[dK]K[dK]K[dL]L[dL])) | -0.693 ± 0.406 kcal/mol | -5.31 ± 0.311 kcal/mol | 63.6 ± 5.4 J K^−1 mol^−1 | -0.19 ± 0.0096 kcal/mol | -4.9 ± 0.048 kcal/mol | 64.0 ± 0.8 J K^−1 mol^−1 |
| CC(C)C[C@@H]1NC(=O)[C@@H](CC(C)C)NC(=O)[C@H](CCC(=O)O)NC(=O)[C@@H](CCCCN)NC(=O)[C@H](CCCCN)NC(=O)[C@@H](CCCCN)NC(=O)[C@H](Cc2c[nH]cn2)NC(=O)[C@@H](CC(C)C)NC1=O [COP 5] (cyclo(E[dL]L[dL]H[dK]K[dK])) | -0.598 ± 0.311 kcal/mol | -5.09 ± 0.19 kcal/mol | 62.3 ± 6.3 J K^−1 mol^−1 | -0.502 ± 0.024 kcal/mol | -5.09 ± 0.096 kcal/mol | 63.6 ± 2.1 J K^−1 mol^−1 |
| CC(C)C[C@@H]1NC(=O)[C@@H](CC(C)C)NC(=O)[C@H](CCC(=O)O)NC(=O)[C@@H](CCCCN)NC(=O)[C@H](CCCCN)NC(=O)[C@@H](CCCCN)NC(=O)[C@H](CS)NC(=O)[C@@H](CC(C)C)NC1=O [COP 6] (cyclo(C[dK]K[dK]E[dL]L[dL])) | -2.39 ± 1.6 kcal/mol | -5.21 ± 0.19 kcal/mol | 38.5 ± 23.8 J K^−1 mol^−1 | -1.2 ± 0.502 kcal/mol | -5.09 ± 0.096 kcal/mol | 54.4 ± 7.9 J K^−1 mol^−1 |
| CC(C)C[C@@H]1NC(=O)[C@@H](CC(C)C)NC(=O)[C@H](CC(C)C)NC(=O)[C@@H](CC(C)C)NC(=O)[C@H](CCC(=O)O)NC(=O)[C@@H](CCCCN)NC(=O)[C@H](CCCCN)NC(=O)[C@@H](CCCCN)NC1=O [COP 7] (cyclo(E[dL]L[dL]L[dK]K[dK])) | -0.789 ± 0.19 kcal/mol | -5.4 ± 0.096 kcal/mol | 63.6 ± 3.8 J K^−1 mol^−1 | -0.19 ± 0.096 kcal/mol | – | 42.7 ± 7.1 J K^−1 mol^−1 |
| CC(C)C[C@@H]1NC(=O)[C@@H](CC(C)C)NC(=O)[C@H](CCC(=O)O)NC(=O)[C@@H](CCCCN)NC(=O)[C@H](Cc2c[nH]cn2)NC(=O)[C@@H](CCCCN)NC(=O)[C@H](Cc2c[nH]cn2)NC(=O)[C@@H](CC(C)C)NC1=O [COP 8] (cyclo(E[dL]L[dL]H[dK]H[dK])) | -0.693 ± 0.19 kcal/mol | -5.09 ± 0.096 kcal/mol | 60.7 ± 0.8 J K^−1 mol^−1 | -0.19 ± 0.024 kcal/mol | -5.09 ± 0.0096 kcal/mol | 66.5 ± 0.4 J K^−1 mol^−1 |
| CC(C)C[C@@H]1NC(=O)[C@@H](CC(C)C)NC(=O)[C@H](CCC(=O)O)NC(=O)[C@@H](CCCCN)NC(=O)[C@H](CCCCN)NC(=O)[C@@H](CCCCN)NC(=O)[C@H](CCC(=O)O)NC(=O)[C@@H](CC(C)C)NC1=O [COP 9] (cyclo(E[dK]K[dK]E[dL]L[dL])) | -0.789 ± 0.096 kcal/mol | -5.09 ± 0.19 kcal/mol | 59.4 ± 2.1 J K^−1 mol^−1 | -0.406 ± 0.048 kcal/mol | -5 ± 0.0096 kcal/mol | 63.6 ± 0.4 J K^−1 mol^−1 |
